# In PMC8865919, “Penicillin Binding Proteins and β-Lactamases of Mycobacterium tuberculosis: Reexamination of the Historical Paradigm” (mSphere, 2022):
# Amino acid sequences for entries named in this document (tags omitted). Residues count along the entry.
# UniProt I6Y204, 23-291 limits assumed: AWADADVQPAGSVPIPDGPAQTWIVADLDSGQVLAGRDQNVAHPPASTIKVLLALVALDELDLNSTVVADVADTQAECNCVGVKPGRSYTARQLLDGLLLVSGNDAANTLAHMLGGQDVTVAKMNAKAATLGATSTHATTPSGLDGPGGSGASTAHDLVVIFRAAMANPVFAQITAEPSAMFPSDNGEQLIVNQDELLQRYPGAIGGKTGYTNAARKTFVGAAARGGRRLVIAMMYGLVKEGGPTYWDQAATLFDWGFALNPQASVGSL
# UniProt I6YGX2, 40-810 limits assumed: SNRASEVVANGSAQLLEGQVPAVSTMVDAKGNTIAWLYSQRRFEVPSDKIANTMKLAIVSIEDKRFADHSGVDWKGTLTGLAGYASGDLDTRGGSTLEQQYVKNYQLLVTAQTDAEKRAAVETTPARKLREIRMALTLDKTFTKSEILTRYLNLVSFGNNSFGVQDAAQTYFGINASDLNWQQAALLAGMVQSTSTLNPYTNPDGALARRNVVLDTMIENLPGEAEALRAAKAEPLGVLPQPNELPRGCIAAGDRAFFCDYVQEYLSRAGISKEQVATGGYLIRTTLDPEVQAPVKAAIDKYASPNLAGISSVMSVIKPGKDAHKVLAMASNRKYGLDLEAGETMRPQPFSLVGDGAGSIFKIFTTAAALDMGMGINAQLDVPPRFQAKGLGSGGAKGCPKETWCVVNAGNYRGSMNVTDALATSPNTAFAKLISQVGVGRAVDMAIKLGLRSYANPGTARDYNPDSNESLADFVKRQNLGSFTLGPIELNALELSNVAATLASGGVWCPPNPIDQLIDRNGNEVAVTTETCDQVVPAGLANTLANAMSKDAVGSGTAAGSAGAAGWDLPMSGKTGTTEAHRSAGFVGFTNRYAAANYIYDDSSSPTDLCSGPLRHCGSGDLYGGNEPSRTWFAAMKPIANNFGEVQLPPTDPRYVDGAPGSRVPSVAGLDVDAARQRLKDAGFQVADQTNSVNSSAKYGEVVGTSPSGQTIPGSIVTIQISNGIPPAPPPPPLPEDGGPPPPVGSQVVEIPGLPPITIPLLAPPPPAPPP
# UniProt O06380, 35-461 limits assumed: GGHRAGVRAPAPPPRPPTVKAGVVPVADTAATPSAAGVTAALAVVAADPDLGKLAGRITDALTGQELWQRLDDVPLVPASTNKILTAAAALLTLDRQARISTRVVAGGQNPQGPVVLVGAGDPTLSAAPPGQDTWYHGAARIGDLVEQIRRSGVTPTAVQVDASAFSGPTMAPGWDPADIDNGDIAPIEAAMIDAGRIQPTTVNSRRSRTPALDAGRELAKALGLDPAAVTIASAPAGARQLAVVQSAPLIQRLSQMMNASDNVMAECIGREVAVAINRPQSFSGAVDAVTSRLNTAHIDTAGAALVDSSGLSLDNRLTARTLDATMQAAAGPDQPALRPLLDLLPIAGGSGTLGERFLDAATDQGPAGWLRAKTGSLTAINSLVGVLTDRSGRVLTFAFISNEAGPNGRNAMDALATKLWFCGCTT
# Tests used:
# Assay in all cases: BOCILLIN FL fluorescence inhibition, SDS-PAGE
# Conditions in all cases: read-out: FIC50; covalent; competition with 50 μM BOCILLIN FL added after 30 min preincubation; ~200 pmol protein; Tris-Cl pH 7.4; 25°C; tested form: K salt
# [1] = target: DacB2 (Rv2911) (Mycobacterium tuberculosis, UniProt I6Y204)
# From the text: BOCILLIN FL fluorescence inhibition, SDS-PAGE on DacB2 (Rv2911)
# [2] = target: PonA2 (Rv3682) (Mycobacterium tuberculosis, UniProt I6YGX2)
# From the text: BOCILLIN FL fluorescence inhibition, SDS-PAGE on PonA2 (Rv3682)
# [3] = target: DacB (Rv3627c) (Mycobacterium tuberculosis, UniProt O06380)
# From the text: BOCILLIN FL fluorescence inhibition, SDS-PAGE on DacB (Rv3627c)
compound,measurement,setting,value
C[C@@H](O)[C@H]1C(=O)N2C(C(=O)O)=C(SC3CN(C4=NCCS4)C3)S[C@H]12,IC50,[1],11.8 µM
same,IC50,[2],13.8 µM
same,IC50,[3],1200 nM
